Compound potency records, mixed from different reports. Data source: NIAID ChemDB in PubChem.

Shared fields: tests in culture; agent: HIV-1; read by: plaque count; measure: EC50

Lines come from different laboratories, so protocols vary.

structure	cell line	mutations	strain or isolate	value
CC(C)(C)C(=O)OCOP(=O)(COC1(Cn2cnc3c(=O)[nH]c(N)nc32)CC1)OCOC(=O)C(C)(C)C	HT4 + HeLa	-	NL4-3	<10 µM
Nc1ccn([C@H]2CC[C@@H](CO)O2)c(=O)n1	HELA/CD4 + HELA CD4+	-	HXB2	0.3 µM
CCCCCCCCCCCCCCCCCCOC[C@H](COP(=O)(O)C(=O)O)OCC	HT4 + HT4-6C	-	-	1.9 µM
Cc1cn([C@H]2C[C@H](N=[N+]=[N-])[C@@H](CO)O2)c(=O)[nH]c1=O	HT4 + HT4-6C	-	AZT-resistant A012D Clinical isolate	2 µM
CC(C)(C)C(=O)OCOP(=O)(COC1(Cn2cnc3cnc(N)nc32)CC1)OCOC(=O)C(C)(C)C	HT4 + HeLa	-	NL4-3	<10 µM
O=C(O)P(=O)(O)O	HT4 + HT4-6C	-	-	139 µM
Cc1ccnc2c1NC(=O)c1cccnc1N2C1CC1	CEM + CEM-SS	-	IIIB WT	0.24 µM
CCCCCCCCCCCCCCCCCCOCC(O)CO	HT4 + HT4-6C	-	-	>316 µM
Cc1cn([C@H]2C[C@H](N=[N+]=[N-])[C@@H](CO)O2)c(=O)[nH]c1=O	HT4 + HT4-6C	RT-D67N K70R T215F K219Q	clinical isolate A012D (RT D67N K70R T215F K219Q)	2 µM
Cc1cn([C@H]2C[C@H](N=[N+]=[N-])[C@@H](CO)O2)c(=O)[nH]c1=O	HT4LACZ-1 + HT4 LacZ-1	RT-M41L D67N K70R M184V T215Y	RTMQ+184V (RT M41L D67N K70R M184V T215Y)	0.03 µM
Nc1nc(=O)n([C@@H]2CS[C@H](CO)O2)cc1F	HT4 + HT4 LacZ-1	RT-M41L 215Y	RTMN (RT-M41L T215Y)	0.34 µM
CCCCCCCCCCCCSCC(COP(=O)([O-])OCC[N+](C)(C)C)OCCCCCCCCC(=O)OCC(=O)OC[C@H]1O[C@@H](n2cc(C)c(=O)[nH]c2=O)C[C@@H]1N=[N+]=[N-]	CEM + CEM-SS	-	RF2803 WT	0.01 µM
Cc1cn([C@H]2C=C[C@@H](CO)O2)c(=O)[nH]c1=O	CD4+HELA + HeLa	RT-V75A	RTMC (RT-V 75A)	1.4 ± 0.28 µM
Cc1cn([C@H]2C[C@H](N=[N+]=[N-])[C@@H](CO)O2)c(=O)[nH]c1=O	CEM + CEM-SS	-	R5X4 WT	0.04 µM
O=c1[nH]cnc2c1ncn2[C@H]1CC[C@@H](CO)O1	HELA/CD4 + HELA CD4+	-	HXB2	3.18 µM
C[C@H]1C[C@]1(Cn1cnc2cnc(N)nc21)OCP(=O)(OCOC(=O)C(C)(C)C)OCOC(=O)C(C)(C)C	HT4 + HeLa	-	NL4-3	<100 µM
O=c1[nH]cnc2c1ncn2[C@H]1CC[C@@H](CO)O1	HT4 + HT4 LacZ-1	RT-M41L M184V T215Y	RTMN(184) (RT M41L M184V T215Y)	4.9 µM
O=c1[nH]c(=O)n([C@H]2C[C@H](F)[C@@H](CO)O2)cc1Cl	CD4+HELA + HeLa	RT-L74V	RT L74V (ddI- ddC-resistant)	13 µM
Nc1nc(=O)n([C@H]2CS[C@@H](CO)O2)cc1F	HELA/CD4 + HELA CD4+	RT-M184I	HXB2	1.7 µM
CCCCCCCCCCCCCCCCCCOCCCOP(=O)(O)C(=O)O	HT4 + HT4-6C	-	-	0.95 µM
Nc1ccn([C@H]2CC[C@@H](CO)O2)c(=O)n1	CD4+HELA + HeLa	-	HXB2	0.07 ± 0.04 µM
CC(C)=CCN1Cc2cc(Cl)cc3[nH]c(=S)n(c23)C[C@@H]1C	HT4 + HT4 LacZ-1	RT-M41L Y181C T215Y	HXB2	2.8 µM
Cc1cn([C@H]2CC[C@@H](CO)O2)c(=O)[nH]c1=O	HT4 + HT4-6C	-	A018A Clinical isolate	220 µM
CCCCCCCCCCCCCCCCCC(=O)OCC(COP(=O)(O)OP(=O)(O)OC[C@@H]1CC[C@H](n2cc(C)c(=O)[nH]c2=O)O1)OC(=O)CCCCCCCCCCCCCCCCC	HeLa + HELA CD4+	-	-	1 µM
S=C(NCCc1cccs1)Nc1ccc(Br)cn1	HT4 + HeLa	-	H112-2 Clinical isolate	0.0006 µM

The last 2 rows once more:

| structure | cell line | mutations | strain or isolate | value |
|---|---|---|---|---|
| CCCCCCCCCCCCCCCCCC(=O)OCC(COP(=O)(O)OP(=O)(O)OC[C@@H]1CC[C@H](n2cc(C)c(=O)[nH]c2=O)O1)OC(=O)CCCCCCCCCCCCCCCCC | HeLa + HELA CD4+ | - | - | 1 µM |
| S=C(NCCc1cccs1)Nc1ccc(Br)cn1 | HT4 + HeLa | - | H112-2 Clinical isolate | 0.0006 µM |

An empty or dashed field is not shown. ECn is the concentration giving n% inhibition of infection, replication or growth.